Data source: PubChem BioAssay AID504761 (Drosophila RNAi Screening Center, 2011)
The screen tested about 22,000 reagents; shown is a random part of those that have a named target and a result. In the full data, 116 (0.52%) were called active. 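Calls depend on retest data that are not deposited; infection was ranked per plate without normalising between plates; the unit of the infection score is not given.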 Raw values are not corrected between plates. Reagents against one gene are numbered here. Not stated in the record: the amount of reagent, the time to read-out.

Aim: 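Genome-wide fly cell screen for genes dengue virus requires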 (primary screen)
Cells: D.Mel-2 cells from Drosophila
Knock-down reagent: long dsRNA against Drosophila genes
Conditions: infection with dengue virus type 2; dose and infection time not stated
Read-out: 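Per well on two replicate plates, imaging gave the percent of cells positive for viral envelope protein, ranked by infection, and a nuclear count of cells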
Direction: infection score: higher = more virus-infected cells; cell count: higher = more cells in the well
Call rule: 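Low infection ranks in the two replicates (chance level up to 0.065) followed by a retest with a 1.5-fold or larger significant decrease, p below 0.05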
Meaning of the calls: active = confirmed: knock-down lowers infection; inactive = not picked or not confirmed

The first 7 records, to show the layout:
gene knocked down,reagent no.,"infection score, replicate 1","infection score, replicate 2","cell count, replicate 1","cell count, replicate 2",call
CG8314,1,,2.7,353,592,inactive
Vamp7 (Vesicle-associated membrane protein 7),1,24.5,9.4,5766,7138,inactive
CG31100,1,1.56,3.74,6397,6818,inactive
CG31100,2,1.61,10,6215,6533,inactive
CG4734,1,21.2,26.3,4650,4514,inactive
CG4734,2,5.82,3.24,6565,6482,inactive
Bet3 (Blocked early in transport 3),1,1.63,2.03,5759,5266,inactive

Main list, from the first entry:
gene knocked down,reagent no.,"infection score, replicate 1","infection score, replicate 2","cell count, replicate 1","cell count, replicate 2",call
CG8314,1,,2.7,353,592,inactive
Vamp7 (Vesicle-associated membrane protein 7),1,24.5,9.4,5766,7138,inactive
CG31100,1,1.56,3.74,6397,6818,inactive
CG31100,2,1.61,10,6215,6533,inactive
CG4734,1,21.2,26.3,4650,4514,inactive
CG4734,2,5.82,3.24,6565,6482,inactive
Bet3 (Blocked early in transport 3),1,1.63,2.03,5759,5266,inactive
CG13705,1,3,1.76,6366,5667,inactive
CG13705,2,23.6,2.63,6267,7194,inactive
CG13705,3,9.82,14.9,5937,5483,inactive
CycE (Cyclin E),1,35.3,22.9,2280,2375,inactive
CycE (Cyclin E),2,3.19,3.9,3826,4278,inactive
Rad17,1,6.18,13.8,6688,5928,inactive
iotaTry (iotaTrypsin),1,27,35.4,2058,6099,inactive
CG13157,1,3.57,9.29,6351,6478,inactive
Inx5 (Innexin 5),1,2.97,0.46,6066,5816,inactive
edin (elevated during infection),1,3.21,2.9,5852,5661,inactive
CG17404,1,5.85,22.4,5644,3647,inactive
CG8093,1,10,24.7,7099,4979,inactive
nAChRalpha7 (nicotinic Acetylcholine Receptor alpha7),1,11.9,4.27,5710,6071,inactive
nAChRalpha7 (nicotinic Acetylcholine Receptor alpha7),2,5.36,3.8,5425,6074,inactive
CG1703,1,8.79,1.48,6530,6332,inactive
Cpr47Eg (Cuticular protein 47Eg),1,27.1,13.4,6318,6169,inactive
babo (baboon),1,,5.16,481,814,inactive
Osi16 (Osiris 16),1,5.02,17.7,6580,5619,inactive
Osi16 (Osiris 16),2,3.22,1.91,6521,6761,inactive
spn-D (spindle D),1,12.7,2.35,5794,6634,inactive
gammaTub37C (gamma-Tubulin at 37C),1,13.8,15.5,6089,6268,inactive
gammaTub37C (gamma-Tubulin at 37C),2,3.47,0.97,6020,5952,inactive
DIP-zeta (Dpr-interacting protein zeta),1,1.35,2.18,6131,6753,inactive
DIP-zeta (Dpr-interacting protein zeta),2,1.1,2.04,6929,7596,inactive
DIP-zeta (Dpr-interacting protein zeta),3,1.3,1.75,6242,6530,inactive
Opbp (Optix-binding protein),1,8.89,4.95,6308,6803,inactive
Opbp (Optix-binding protein),2,12.9,7.32,3017,1203,inactive
RpS19a (Ribosomal protein S19a),1,4.65,3.65,1785,2001,inactive
Tsp97E (Tetraspanin 97E),1,2.04,9.57,6970,6207,inactive
Tsp97E (Tetraspanin 97E),2,21.8,15.3,4527,4119,inactive
CG30096,1,8.25,6.83,6569,5853,inactive
Phk-3 (Pherokine 3),1,11,16.4,5214,4566,inactive
bero (belly roll),1,3.43,,5541,565,inactive
bero (belly roll),2,6.32,3.08,6485,6143,inactive
Mettl2 (Methyltransferase like 2),1,3.72,,913,390,inactive
Mettl2 (Methyltransferase like 2),2,8.97,3.88,6418,6347,inactive
hig (hikaru genki),1,3.21,1.69,6750,6674,inactive
hig (hikaru genki),2,1.11,8.89,6237,5950,inactive
hig (hikaru genki),3,5.89,8.22,5887,4511,inactive
hig (hikaru genki),4,3.27,2.99,6028,5862,inactive
CG15461,1,2.49,6.12,5979,5263,inactive
CG33093,1,3.31,6.36,7089,6913,inactive
Top2 (Topoisomerase 2),1,3.33,2.58,1592,5688,inactive
CG11596,1,2.48,,6568,95,inactive
CG11596,2,16.3,4.94,5004,4412,inactive
slmb (supernumerary limbs),1,2.15,2.76,5578,6491,inactive
Prx4 (Peroxiredoxin 4),1,1.01,5.27,6047,5903,inactive
Prx4 (Peroxiredoxin 4),2,5.09,5.07,6654,6667,inactive
SmD1 (Small ribonucleoprotein particle protein SmD1),1,2.07,19,4931,4761,inactive
SmD1 (Small ribonucleoprotein particle protein SmD1),2,10,0.95,1657,529,inactive
Or10a (Odorant receptor 10a),1,1.47,14.5,750,5588,inactive
Or10a (Odorant receptor 10a),2,2.55,13.2,6740,3608,inactive
